This is an account of results in patent publication US10029984B2, “Mono- or di-substituted indole derivatives as dengue viral replication inhibitors” (Janssen Pharmaceuticals, Inc., priority 2015, dated 2018).

For the data set, the system named is DENV-2 16681 strain. Kind of data set: DENV-2 antiviral assay (eGFP-labeled virus in Vero cells). The settings on record: SI=CC50/EC50, DENV-2 antiviral assay. In kind it is cell-based, Dengue virus. Here is the method:
The antiviral activity of all the compounds of the invention was tested against DENV-2 16681 strain which was labeled with enhanced green fluorescent protein (eGPF; Table 1). The culture medium consists of minimal essential medium supplemented with 2% of heat-inactivated fetal calf serum, 0.04% gentamycin (50 mg/mL) and 2 mM of L-glutamine. Vero cells, obtained from ECACC, were suspended in culture medium and 25 μL was added to 384-well plates (2500 cells/well), which already contain the antiviral compounds. Typically, these plates contain a 4-fold serial dilution of 9 dilution steps of the test compound at 200 times the final concentration in 100% DMSO (200 nL). In addition, each compound concentration is tested in quadruplicate (final concentration range: 25 μM-0.00038 μM). Finally, each plate contains wells which are assigned as virus controls (containing cells and virus in the absence of compound), cell controls (containing cells in the absence of virus and compound) and medium controls (containing medium in the absence of cells, virus and compounds). To the wells assigned as medium control, 25 μL of culture medium was added instead of Vero cells. Once the cells were added to the plates, the plates were incubated for 30 minutes at room temperature to allow the cells to distribute evenly within the wells. Next, the plates were incubated in a fully humidified incubator (37° C., 5% CO2) until the next day. Then, DENV-2 strain 16681, labeled with eGFP, was added at a multiplicity of infection (MOI) of 0.5. Therefore, 15 μL of virus suspension was added to all the wells containing test compound and to the wells assigned as virus control. In parallel, 15 μL of culture medium was added to the medium and cell controls. Next, the plates were incubated for 3 days in a fully humidified incubator (37° C., 5% CO2). At the day of the read out, the eGFP fluorescence was measured using an automated fluorescence microscope at 488 nm (blue laser). Using an in-house LIMS system, inhibition dose response curves for each compound were calculated and the half maximal effective concentration (EC50) was determined. Therefore, the percent inhibition (I) for every test concentration is calculated using the following formula: I=100*(ST−SCC)/(SVC−SCC); ST, SCC and SVC are the amount of eGFP signal in the test compound, cell control and virus control wells, respectively. The EC50 represents the concentration of a compound at which the virus replication is inhibited with 50%, as measured by a 50% reduction of the eGFP fluorescent intensity compared to the virus control. The EC50 is calculated using linear interpolation.

Take `COc1cc(NC(C(=O)c2c[nH]c3cc(Cl)ccc23)c2ccc(F)cc2OC)cc(S(C)(=O)=O)c1` (single isomer, unassigned) [Enantiomer 4B, 1-(6-chloro-1H-indol-3-yl)-2-(4-fluoro-2-methoxyphenyl)-2-((3-methoxy-5-(methylsulfonyl)phenyl)amino)ethanone]: the SI (listed as 4B) worked out at 814.

For `COc1cc(NC(C(=O)c2c[nH]c3cc(OC)ccc23)c2ccc(F)cc2OC)cc(S(C)(=O)=O)c1` (single isomer, unassigned) [Enantiomer 5A, 2-(4-fluoro-2-methoxyphenyl)-1-(6-methoxy-1H-indol-3-yl)-2-((3-methoxy-5-(methylsulfonyl)phenyl)amino)ethanone], the SI (listed as 5A) was 530.

Consider `COc1cc(NC(C(=O)c2c[nH]c3c(F)cc(C)cc23)c2ccc(F)cc2OC)cc(S(C)(=O)=O)c1` (single isomer, unassigned) [Enantiomer 6B, 2-(4-fluoro-2-methoxyphenyl)-1-(7-fluoro-5-methyl-1H-indol-3-yl)-2-((3-methoxy-5-(methylsulfonyl)phenyl)amino)ethanone], for which, under “listed as 6B”, the SI is 67.

Take `COc1cc(NC(C(=O)c2c[nH]c3cc(F)c(F)cc23)c2ccc(F)cc2OC)cc(S(C)(=O)=O)c1` (single isomer, unassigned) [Enantiomer 7B, 1-(5,6-difluoro-1H-indol-3-yl)-2-(4-fluoro-2-methoxyphenyl)-2-((3-methoxy-5-(methylsulfonyl)phenyl)amino)ethanone]: the SI (listed as 7B) is listed as 216.

Where the note is “listed as 8B”, `COc1cc(NC(C(=O)c2c[nH]c3c(C)cc(F)cc23)c2ccc(F)cc2OC)cc(S(C)(=O)=O)c1` (single isomer, unassigned) [Enantiomer 8B, 2-(4-fluoro-2-methoxyphenyl)-1-(5-fluoro-7-methyl-1H-indol-3-yl)-2-((3-methoxy-5-(methylsulfonyl)phenyl)amino)ethanone] came in with an SI of 45.

Regarding `COc1cc(NC(C(=O)c2c[nH]c3cc(C)c(F)cc23)c2ccc(F)cc2OC)cc(S(C)(=O)=O)c1` (single isomer, unassigned) [Enantiomer 9B, 2-(4-fluoro-2-methoxyphenyl)-1-(5-fluoro-6-methyl-1H-indol-3-yl)-2-((3-methoxy-5-(methylsulfonyl)phenyl)amino)ethanone], the SI (listed as 9B) stood at 212.

The molecule `COc1cc(NC(C(=O)c2c[nH]c3cc(OC)c(C)cc23)c2ccc(F)cc2OC)cc(S(C)(=O)=O)c1` (single isomer, unassigned) [Enantiomer 10A, 2-(4-fluoro-2-methoxyphenyl)-2-((3-methoxy-5-(methylsulfonyl)phenyl)amino)-1-(6-methoxy-5-methyl-1H-indol-3-yl)ethanone] gave an SI (listed as 10A) of 550.

On to `COc1cc(NC(C(=O)c2c[nH]c3cc(OC)c(F)cc23)c2ccc(F)cc2OC)cc(S(C)(=O)=O)c1` (single isomer, unassigned) [Enantiomer 11B, 2-(4-fluoro-2-methoxyphenyl)-1-(5-fluoro-6-methoxy-1H-indol-3-yl)-2-((3-methoxy-5-(methylsulfonyl)phenyl)amino)ethanone], for which the SI (listed as 11B) is recorded as >1617.

For the molecule `COc1cc(NC(C(=O)c2c[nH]c3c(Cl)c(OC)ccc23)c2ccc(F)cc2OC)cc(S(C)(=O)=O)c1` (single isomer, unassigned) [Enantiomer 12B, 1-(7-chloro-6-methoxy-1H-indol-3-yl)-2-(4-fluoro-2-methoxyphenyl)-2-((3-methoxy-5-(methylsulfonyl)phenyl)amino)ethanone], the SI (listed as 12B) was >1373.

With `COc1cc(NC(C(=O)c2c[nH]c3c(F)c(F)ccc23)c2ccc(F)cc2OC)cc(S(C)(=O)=O)c1` (single isomer, unassigned) [Enantiomer 13A, 1-(6,7-difluoro-1H-indol-3-yl)-2-(4-fluoro-2-methoxyphenyl)-2-((3-methoxy-5-(methylsulfonyl)phenyl)amino)ethanone], where the note is “listed as 13A”, the SI came to 484.

On to `COc1cc(NC(C(=O)c2c[nH]c3cc(F)c(C)cc23)c2ccc(F)cc2OC)cc(S(C)(=O)=O)c1` (single isomer, unassigned) [Enantiomer 14B, 2-(4-fluoro-2-methoxyphenyl)-1-(6-fluoro-5-methyl-1H-indol-3-yl)-2-((3-methoxy-5-(methylsulfonyl)phenyl)amino)ethanone], for which the SI (listed as 14B) is 262.

Molecule `COc1cc(NC(C(=O)c2c[nH]c3ccc(C)cc23)c2ccc(F)cc2OC)cc(S(C)(=O)=O)c1` (single isomer, unassigned) [Enantiomer 15B, 2-(4-fluoro-2-methoxyphenyl)-2-((3-methoxy-5-(methylsulfonyl)phenyl)amino)-1-(5-methyl-1H-indol-3-yl)ethanone] registered an SI (listed as 15B) of 196.

Regarding `COc1cc(NC(C(=O)c2c[nH]c3cc(OC)c(Cl)cc23)c2ccc(F)cc2OC)cc(S(C)(=O)=O)c1` (single isomer, unassigned) [Enantiomer 16B, 1-(5-chloro-6-methoxy-1H-indol-3-yl)-2-(4-fluoro-2-methoxyphenyl)-2-((3-methoxy-5-(methylsulfonyl)phenyl)amino)ethanone], the SI (listed as 16B) is 1692.

In the case of `COc1cc(NC(C(=O)c2c[nH]c3ccc(C(F)(F)F)cc23)c2ccc(F)cc2OC)cc(S(C)(=O)=O)c1` (single isomer, unassigned) [Enantiomer 17A, 2-(4-fluoro-2-methoxyphenyl)-2-((3-methoxy-5-(methylsulfonyl)phenyl)amino)-1-(5-(trifluoromethyl)-1H-indol-3-yl)ethanone], for the setting “listed as 17A”, the SI was 353.

Molecule `COc1cc(NC(C(=O)c2c[nH]c3ccc(OC(F)(F)F)cc23)c2ccc(F)cc2OC)cc(S(C)(=O)=O)c1` (single isomer, unassigned) [Enantiomer 18B, 2-(4-fluoro-2-methoxyphenyl)-2-((3-methoxy-5-(methylsulfonyl)phenyl)amino)-1-(5-(trifluoromethoxy)-1H-indol-3-yl)ethanone] gave an SI (listed as 18B) of 1132.
